ChEMBL document CHEMBL5034007, “Discovery of Methylene Thioacetal-Incorporated α-RgIA Analogues as Potent and Stable Antagonists of the Human α9α10 Nicotinic Acetylcholine Receptor for the Treatment of Neuropathic Pain” (2021)

Amino acid sequences for entries named in this document (tags omitted). Residues count along the entry.
UniProt P30926, 22-498 limits assumed, entry inferred from the test as described: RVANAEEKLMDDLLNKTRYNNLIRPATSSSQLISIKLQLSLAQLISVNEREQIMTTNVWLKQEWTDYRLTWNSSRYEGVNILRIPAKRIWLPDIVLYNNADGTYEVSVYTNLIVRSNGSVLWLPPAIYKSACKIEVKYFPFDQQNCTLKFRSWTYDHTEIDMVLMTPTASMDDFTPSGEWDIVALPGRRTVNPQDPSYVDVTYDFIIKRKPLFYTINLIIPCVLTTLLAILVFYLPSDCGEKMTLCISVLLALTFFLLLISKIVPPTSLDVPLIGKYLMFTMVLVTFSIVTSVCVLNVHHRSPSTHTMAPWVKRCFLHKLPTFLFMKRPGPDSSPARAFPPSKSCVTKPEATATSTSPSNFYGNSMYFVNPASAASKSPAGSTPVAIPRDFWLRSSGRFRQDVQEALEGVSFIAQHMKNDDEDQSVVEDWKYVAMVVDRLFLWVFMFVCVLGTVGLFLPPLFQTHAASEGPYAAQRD
UniProt P43681, 27-627 limits assumed, entry inferred from the test as described: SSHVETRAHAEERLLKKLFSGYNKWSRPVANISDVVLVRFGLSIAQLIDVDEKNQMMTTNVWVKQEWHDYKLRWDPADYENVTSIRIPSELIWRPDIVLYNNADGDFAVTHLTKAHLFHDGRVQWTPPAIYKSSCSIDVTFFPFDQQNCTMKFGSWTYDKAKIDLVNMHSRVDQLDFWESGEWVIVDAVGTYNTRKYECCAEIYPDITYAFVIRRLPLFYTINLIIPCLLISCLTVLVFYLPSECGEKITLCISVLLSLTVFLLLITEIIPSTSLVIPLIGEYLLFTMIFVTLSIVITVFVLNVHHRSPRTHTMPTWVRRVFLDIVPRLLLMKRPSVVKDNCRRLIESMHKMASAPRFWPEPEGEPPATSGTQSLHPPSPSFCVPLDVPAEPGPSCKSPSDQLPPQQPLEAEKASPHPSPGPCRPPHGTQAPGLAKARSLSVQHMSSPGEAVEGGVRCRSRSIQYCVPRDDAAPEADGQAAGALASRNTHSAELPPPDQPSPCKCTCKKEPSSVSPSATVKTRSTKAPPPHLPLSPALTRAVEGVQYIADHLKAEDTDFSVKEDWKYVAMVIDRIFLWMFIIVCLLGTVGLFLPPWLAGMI

Columns and labels:
Unchecked = Unchecked (Homo sapiens, UniProt P30926+P43681); test: Inhibition of human alpha4beta4 nAChR expressed in Xenopus laevis oocytes assessed as inhibition of acetylcholine-induced current response by two-electrode voltage-clamp method; settings: oocyte
[1] = Inhibition of human alpha6/alpha3beta2beta3 nAChR expressed in Xenopus laevis oocytes assessed as inhibition of acetylcholine-induced current response by two-electrode voltage-clamp method; settings: oocyte

## C[C@H](O)[C@H]1NC(=O)[C@@H]2NC(=O)[C@@H](NC(=O)CN)CSSC[C@H](NC(=O)[C@H](CCCNC(=N)N)NC(=O)[C@@H]3CCCN3C(=O)[C@H](CC(O)O)NC1=O)C(=O)N[C@@H](CCCNC(=N)N)C(=O)N[C@@H](Cc1ccc(O)c(I)c1)C(=O)N[C@@H](CCC(N)=O)C(=O)N[C@H](C(=O)N[C@H](CC(=O)N[C@@H](CCCNC(=N)N)C(=O)O)Cc1ccc(O)cc1)CSCS2
Unchecked
  IC50: > 10 µM
[1]
  IC50: > 10 µM
